A mixed list of measured activities; the numbers were collected in NIAID ChemDB.

Shared fields: whole-cell or culture tests; organism: HIV-1; cell line: MT-4; read-out: EC50

Two numbers with a dash give a range or band. An empty or dashed field is not shown. Neighbouring rows are from separate reports. ECn: concentration that inhibits the pathogen or its effect by n%.

compound | strain | mutations | method | result
Cc1nc2ccccc2c(-c2cc(F)c3c(c2C)CCCO3)c1[C@H](OC(C)(C)C)C(=O)O | NL4-3 | G140S/Q148R | luminescence | 0.017 µM
COC(=O)N[C@H](C(=O)NN(CC[C@@]1(Cc2ccccc2)C(=O)N(C2c3ccccc3C[C@H]2O)C[C@@H]1O)Cc1ccc(Br)cc1)C(C)(C)C | - | - | XTT | 2.5 µM
Cc1cc(C)c(Nc2nc(NC3CCN(Cc4ccc(F)cc4)CC3)nc3nc[nH]c23)c(C)c1 | IIIB | - | MTT | >13.97 µM
COC(=O)C(OC(C)(C)C)c1c(C)ccc(C2CC2C)c1-c1ccc2c(c1)CCCO2 | NL4-3 | - | ATP | 0.3 µM
Cc1cc2cn[nH]c2cc1NC(=O)COc1ccc(Cl)cc1C(=O)c1cccc(C#N)c1 | Nevirapine-resistant (RT Y181C) | RT-Y181C | cytopathic effect / propidium iodide | <0.01 µM
C=C1CN(S(=O)(=O)c2ccc(C)cc2)CCCN(CCC)CCCN(S(=O)(=O)c2ccc(C)cc2)C1 | NL4-3 | - | p24 | 2.39 µM
Cc1cc(S(N)(=O)=O)ccc1NC(=O)COc1ccc(Cl)cc1C(=O)c1cc(Cl)cc(Cl)c1 | IIIB | - | cytopathic effect / propidium iodide | <0.01 µM
COC(=O)N[C@H](C(=O)NN(CCC[C@@]1(Cc2ccccc2)C(=O)N(C2c3ccccc3C[C@H]2O)C[C@H]1O)Cc1ccc(-c2ccccn2)cc1)C(C)(C)C | - | - | XTT | 2.5 µM
Cc1cc(C)cc(S(=O)(=O)c2c(C(N)=O)[nH]c3c(Cl)cc(Cl)cc23)c1 | - | RT-Y181C | cytopathic effect / MTT | >100 µM
Cc1cc(C)c(Nc2nc(NC3CCN(Cc4ccc(Cl)c(Cl)c4)CC3)nc3nc[nH]c23)c(C)c1 | IIIB | - | MTT | ≥45.25 µM
COC(=O)N[C@H](C(=O)NN(Cc1c(F)cc(-c2ccccn2)cc1Cl)C[C@H](O)[C@H](Cc1ccc(C#Cc2ccc(N3CC4CCC(C3)N4C3COC3)nc2)cc1)NC(=O)[C@@H](NC(=O)OC)C(C)(C)C(F)(F)F)C(C)(C)C | IIIB | - | luminescence | 0.00489 µM
COC(=O)N[C@H](C(=O)NN(CC[C@]1(Cc2ccccc2)C(=O)N(C2c3ccccc3C[C@H]2O)C[C@H]1O)Cc1ccc(Br)cc1)C(C)(C)C | - | - | XTT | 2.5 µM
CC1(C)[C@@H](O[C@H]2O[C@H](C(=O)O)[C@@H](O)[C@H](O)[C@H]2O[C@@H]2O[C@H](C(=O)O)[C@@H](O)[C@H](O)[C@H]2O)CC[C@]2(C)[C@H]3C(=O)C=C4[C@@H]5C[C@@](C)(CO)CC[C@]5(C)CC[C@@]4(C)[C@]3(C)CC[C@@H]12 | IIIB | - | cytopathic effect / MTT | ~160 µM
COC(=O)N[C@H](C(=O)N[C@@H](Cc1ccc(-c2ccc(N3CC4CCC(C3)N4C3COC3)nc2)cc1)[C@@H](O)CN(Cc1c(F)cc(-c2ccc(N3CC4CCC(C3)N4C3COC3)nc2)cc1F)NC(=O)[C@@H](NC(=O)OC)C(C)(C)C(F)(F)F)C(C)(C)C(F)(F)F | IIIB | - | luminescence | 0.00967 µM
Cc1cc(C)c(Nc2nc(NC3CCN(Cc4ccccc4C#N)CC3)nc3nc[nH]c23)c(C)c1 | IIIB | - | MTT | 27.33 µM
O=S(=O)(O)c1cc(O)c2c(NS(=O)(=O)c3ccc(-c4ccc(S(=O)(=O)Nc5cc(S(=O)(=O)O)cc6cc(S(=O)(=O)O)cc(O)c56)cc4)cc3)cc(S(=O)(=O)O)cc2c1 | IIIB | - | syncytia | 40 µg/mL
Cc1cc(C#N)cc(C(=O)c2cc(Cl)ccc2OCC(=O)Nc2ccc(S(N)(=O)=O)cc2C)c1 | IIIB | - | cytopathic effect / propidium iodide | <0.01 µM
C=C1CN(S(=O)(=O)c2ccc(C)cc2)CCCN(Cc2ccccn2)CCCN(S(=O)(=O)c2ccc(C)cc2)C1 | NL4-3 | - | p24 | >75 µM
Cc1cc(C)cc(S(=O)(=O)c2c(C(=O)NNCCO)[nH]c3ccc(Cl)cc23)c1 | - | - | p24 | <0.004 µM
C=C1CN(S(=O)(=O)c2ccc(C)cc2)CCCN(Cc2ccccc2)CCCN(S(=O)(=O)c2ccc(C)cc2)C1 | NL4-3 | - | p24 | 0.7 µg/mL
COC(=O)N[C@H](C(=O)NN(CCC[C@@]1(Cc2ccccc2)C(=O)N(C2c3ccccc3C[C@H]2O)C[C@H]1O)Cc1ccc(Br)cc1)C(C)(C)C | - | - | XTT | 2.5 µM
Cc1cc(C#N)cc(C(=O)c2cc(Cl)ccc2OCC(=O)Nc2ccc(S(N)(=O)=O)nc2C)c1 | Nevirapine-resistant (RT Y181C) | RT-Y181C | cytopathic effect / propidium iodide | <0.01 µM
COC(=O)N[C@H](C(=O)NN(CC[C@@]1(Cc2ccccc2)C(=O)N(C2c3ccccc3C[C@H]2O)C[C@@H]1O)Cc1ccc(-c2cccnc2)cc1)C(C)(C)C | - | - | XTT | 2.5 µM
COC(=O)N[C@H](C(=O)NN(Cc1c(F)cc(-c2cnccn2)cc1F)C[C@H](O)[C@H](Cc1ccc(C#Cc2ccc(N3CC4CCC(C3)N4C3COC3)nc2C)cc1)NC(=O)[C@@H](NC(=O)OC)C(C)(C)C(F)(F)F)C(C)(C)C | IIIB | - | luminescence | 0.00404 µM
Cc1cc(S(N)(=O)=O)ccc1NC(=O)COc1ccc(Cl)cc1C(=O)c1cccc(C#N)c1 | IIIB | - | cytopathic effect / propidium iodide | <0.01 µM
COC(=O)N[C@H](C(=O)NN(CCC[C@@]1(Cc2ccccc2)C(=O)N(C2c3ccccc3C[C@H]2O)C[C@H]1O)Cc1ccc(-c2cccnc2)cc1)C(C)(C)C | - | - | XTT | 2.5 µM
CC1(C)CC=C(c2cn(-c3nccc(C(=O)NC4CCC(N5CC6CCC(C5)O6)CC4)n3)c3ccc(F)c([C@H](OC(C)(C)C)C(=O)O)c23)CC1 | NL4-3 | T124V | luminescence | 0.0016 µM
C=C1CN(S(=O)(=O)c2ccc(C)cc2)CCCN(CC2CC=CCC2)CCCN(S(=O)(=O)c2ccc(C)cc2)C1 | NL4-3 | - | p24 | 0.6 µM
Cc1cc(C#N)cc(C(=O)c2cc(Cl)ccc2OCC(=O)Nc2cnc(S(N)(=O)=O)cc2C)c1 | IIIB | - | cytopathic effect / propidium iodide | <0.01 µM
O=C(c1cc(-c2cc(F)cc(OC(F)(F)F)c2)n(-c2ccnc(Cl)c2)n1)N1CCSC1 | NL4-3 | K103N/Y181C | luminescence | 3.3 µM
COC(=O)N[C@H](C(=O)N[C@@H](Cc1ccc(C#Cc2ccc(N3CC4CCC(C3)N4C3COC3)nc2)cc1)[C@@H](O)CN(Cc1c(F)cc(-c2ccn(C(F)F)n2)cc1F)NC(=O)[C@@H](NC(=O)OC)C(C)(C)C)C(C)(C)C | IIIB | - | luminescence | 0.00247 µM
Cc1cn([C@H]2C=C[C@@H](CO)O2)c(=O)[nH]c1=O | - | - | - | 0.05 µM
Cc1cc(Cl)cc(C(=O)c2cc(Cl)ccc2OCC(=O)Nc2ccc(S(N)(=O)=O)cc2C)c1 | IIIB | - | cytopathic effect / propidium iodide | 0.011–0.1 µM
Cc1cc(C)c(Nc2nc(NC3CCN(Cc4ccc(C#N)cc4)CC3)nc3nc[nH]c23)c(C)c1 | IIIB | - | MTT | >26.79 µM
COC(=O)N[C@H](C(=O)NN(CC[C@@]1(Cc2ccccc2)C(=O)N(C2c3ccccc3C[C@H]2O)C[C@H]1O)Cc1ccc(-c2ccccn2)cc1)C(C)(C)C | - | - | XTT | 2.5 µM
Cc1cc(C#N)cc(C(=O)c2cc(Cl)ccc2OCC(=O)Nc2ccc(OCCCN3CC=CC3)cc2C)c1 | Nevirapine-resistant (RT Y181C) | RT-Y181C | cytopathic effect / propidium iodide | <0.01 µM

For reference, 3 entries again:

compound,strain,mutations,method,result
COC(=O)N[C@H](C(=O)NN(CC[C@@]1(Cc2ccccc2)C(=O)N(C2c3ccccc3C[C@H]2O)C[C@H]1O)Cc1ccc(-c2ccccn2)cc1)C(C)(C)C,-,-,XTT,2.5 µM
CC1(C)[C@@H](O[C@H]2O[C@H](C(=O)O)[C@@H](O)[C@H](O)[C@H]2O[C@@H]2O[C@H](C(=O)O)[C@@H](O)[C@H](O)[C@H]2O)CC[C@]2(C)[C@H]3C(=O)C=C4[C@@H]5C[C@@](C)(CO)CC[C@]5(C)CC[C@@]4(C)[C@]3(C)CC[C@@H]12,IIIB,-,cytopathic effect / MTT,~160 µM
Cc1cc(C#N)cc(C(=O)c2cc(Cl)ccc2OCC(=O)Nc2ccc(S(N)(=O)=O)cc2C)c1,IIIB,-,cytopathic effect / propidium iodide,<0.01 µM